The series is described as follows: general procedure: Fmoc solid-phase peptide synthesis; 2-chlorotrityl chloride resin (Novabiochem; Sub 1.00 mmol/g); Fmoc Rink amide MBHA-type resin (Sub 0.28 mmol/g); HBTU/DIEA; HATU/DIEA. The note with it: cyclisation step, HOAc.

Experimental findings from patent publication US12329823B2 (The Scripps Research Institute, priority 2021, dated 2025) are described below.

HELM strings list residues between dots; [ac] is acetyl, [am] amide, other brackets name non-standard units. Numbered stars: 1 amine (or outer) side, 2 acyl side, 3 side chain; on linkers, the order of the positions; unused ones are H or OH. Bridge positions count the residues as written; N and C are the ends. Square brackets hold non-standard residues; d marks the D form. X1 = O=C(O)CCCCCCCCCCCCCCCCC(=O)N[C@@H](CCCCNC(=O)CCOCCOCCNC(=O)CCOCCOCCNC(=O)CCC(=O)N(CCNC(=O)C[*:1])CCNC(=O)C[*:2])C(=O)O; Aib = CC(C)(N)C(=O)O

For the substance “H-Y[Aib]EGTFTSDYSIYCDKQAA[Aib]CFVNWLIAGGPSSGAPPPS-NH2 (linker 14-21 via X1; N-terminus assumed; SMILES CC[C@H](C)[C@H](NC(=O)[C@H](CC(C)C)NC(=O)[C@H](Cc1c[nH]c2ccccc12)NC(=O)[C@H](CC(N)=O)NC(=O)[C@@H](NC(=O)[C@H](Cc1ccccc1)NC(=O)[C@@H]1CSCC(=O)NCCN(C(=O)CCC(=O)NCCOCCOCCC(=O)NCCOCCOCCC(=O)NCCCC[C@H](NC(=O)CCCCCCCCCCCCCCCCC(=O)O)C(=O)O)CCNC(=O)CSC[C@H](NC(=O)[C@H](Cc2ccc(O)cc2)NC(=O)[C@@H](NC(=O)[C@H](CO)NC(=O)[C@H](Cc2ccc(O)cc2)NC(=O)[C@H](CC(=O)O)NC(=O)[C@H](CO)NC(=O)[C@@H](NC(=O)[C@H](Cc2ccccc2)NC(=O)[C@@H](NC(=O)CNC(=O)[C@H](CCC(=O)O)NC(=O)C(C)(C)NC(=O)[C@@H](N)Cc2ccc(O)cc2)[C@@H](C)O)[C@@H](C)O)[C@@H](C)CC)C(=O)N[C@@H](CC(=O)O)C(=O)N[C@@H](CCCCN)C(=O)N[C@@H](CCC(N)=O)C(=O)N[C@@H](C)C(=O)N[C@@H](C)C(=O)NC(C)(C)C(=O)N1)C(C)C)C(=O)N[C@@H](C)C(=O)NCC(=O)NCC(=O)N1CCC[C@H]1C(=O)N[C@@H](CO)C(=O)N[C@@H](CO)C(=O)NCC(=O)N[C@@H](C)C(=O)N1CCC[C@H]1C(=O)N1CCC[C@H]1C(=O)N1CCC[C@H]1C(=O)N[C@@H](CO)C(N)=O)”, the cyclisation yield was 58.15%. Besides, the “final HPLC purity” value (HPLC, LC-QTOF with UV detection at 214 nm) is reported as 96.85%.
